Anti-infective test results gathered from many reports (values: NIAID ChemDB through PubChem).

All rows: tests in culture; species: Hepatitis C virus; read-out: EC50

An empty or dashed field is not shown. Lines come from different laboratories, so protocols vary. a–b is a range or a potency band. ECn: concentration that inhibits the pathogen or its effect by n%.

compound | cell line | method | changes | strain | result
CNC(=O)c1c(-c2ccc(F)cc2)oc2cc(N(Cc3cccc(CBr)n3)S(C)(=O)=O)c(OCc3cccc(CBr)n3)cc12 | Huh7 | replicon | - | - | <10 µM
CCCCCOc1ccc(N(C(=O)C(=O)OC)c2nc(-c3ccncc3)cs2)cc1C(F)(F)F | - | - | - | - | <1 µM
COc1c(-c2ccc3cc(NS(C)(=O)=O)ccc3c2)cc(-n2ccc(=O)[nH]c2=O)cc1C(C)(C)C | Huh7 | luciferase | V499A | genotype 1b | 0.0025 µM
COCC(C)N(C(=O)c1ccc(Cl)cc1Cl)c1cc(-c2ccccc2)sc1C(=O)O | - | luciferase / replicon | - | 1a | 1–5 µM
CCOc1nc(N[C@H](C)c2ccccc2)nc2ccc(-c3ccc(F)cc3)nc12 | - | replicon | - | - | <0.1 µM
CC(C)N(C(=O)c1ccc(Cl)cc1F)c1cc(-c2ccccc2)sc1C(=O)O | - | luciferase / replicon | - | 1b | 1–5 µM
NC(=O)N(c1ccc(OCC2CCCCC2)c(F)c1)c1nc(-c2cccnc2)cs1 | - | - | - | - | <1 µM
CN(C)CCCNC(=O)CCC(=O)N1c2cccc(O)c2NC2=C(C(=O)CC(C)(C)C2)C1c1ccc(OCc2ccccc2)cc1Cl | - | luciferase / reporter gene / replicon | - | 1b | 38.38 µM
NS(=O)(=O)c1ccc(CNc2nc(NCC(F)(F)F)c3nc(-c4ccnnc4)ccc3n2)cc1 | - | replicon | - | - | <0.1 µM
CNC(=O)c1c(-c2cccnc2)oc2ccc(Cl)cc12 | Huh7 | replicon | - | - | >30 µM
O=C(N[C@@H](C(=O)N1CCC[C@H]1c1ncc(-c2ccc(-c3ccc(-c4cnc([C@@H]5CCCN5C(=O)[C@H](NC(=O)C5CC5)c5ccccc5)s4)cc3)cc2)s1)c1ccccc1)C1CC1 | Huh7.5 | luciferase / reporter gene | P58S | genotype 1b | 0.000038 µM
CCCc1cc(C(=O)N2c3cccc(O)c3NC3=C(C(=O)CC(C)(C)C3)C2c2ccc(OCc3ccccc3)cc2F)no1 | - | luciferase / reporter gene / replicon | - | 1b | 5.77 µM
Fc1ccc(-c2ccc3nc(NCCN4CCOCC4)nc(NCC(F)(F)F)c3n2)cc1 | - | replicon | - | - | <0.1 µM
CC1(C)CC(=O)C2=C(C1)Nc1c(O)cccc1NC2c1ccccc1Cl | - | luciferase / reporter gene / replicon | - | 1b | >100 µM
CCCCCOc1ccc(N(C(=O)NCC)c2nc(-c3cccnc3)cs2)cc1C(F)(F)F | - | - | - | - | <1 µM
Cc1cc(Br)ccc1C(=O)N(c1cc(-c2ccc(-c3cn4ccccc4n3)cc2)sc1C(=O)O)C(C)C | - | replicon / ELISA | - | 1a | 0.1–0.5 µM
CNC(=O)c1c(-c2ccccc2)oc2ccc(C(C)(C)C)cc12 | Huh7 | replicon | - | - | <10 µM
CCCCOc1ccc(N(C(N)=O)c2nc(-c3cccnc3)cs2)cc1C(F)(F)F | - | - | - | - | <1 µM
CC(=O)N1c2cccc(O)c2NC2=C(C(=O)CC(C)(C)C2)[C@H]1c1ccc(OCc2ccccc2)c(Cl)c1 | - | luciferase / reporter gene / replicon | - | 1b | 2.05 µM
CNC(=O)c1c(-c2ccc(F)cc2)oc2cc(N(C)S(C)(=O)=O)c(OCC(=O)Nc3nncs3)cc12 | Huh7 | replicon | - | - | <1 µM
Cc1ccc(C(=O)N(c2cc(-c3ccc(-c4cc5ncccn5n4)cc3)sc2C(=O)O)C(C)C)c(C)c1 | - | luciferase / replicon | - | 1a | 0.1–0.5 µM
CCCCCOc1ccc(N(C(=O)C(C)OC(C)=O)c2nc(-c3cccnc3)cs2)cc1C(F)(F)F | - | - | - | - | <1 µM
CN1CC[C@H](C(=O)Nc2ccc(-c3ccc4nc(NCc5ccc(S(N)(=O)=O)cc5)nc(OC5CC5)c4n3)cc2)C1 | - | replicon | - | - | <0.1 µM
CCCCCCCCOc1ccc(N(C(=O)C(=O)OC)c2nc(-c3ccc(F)c(F)c3)cs2)cc1 | - | - | - | - | <1 µM
CNC(=O)c1c(-c2ccc(F)cc2)oc2cc(N(C)S(C)(=O)=O)c(Oc3nc(CCl)ns3)cc12 | Huh7 | replicon | - | - | <1 µM
CCCCCN(C)c1ccc(N(C(=O)c2cc(C)on2)c2nc(-c3cccnc3)cs2)cc1C(F)(F)F | - | - | - | - | <1 µM
Cc1nc(C(=O)N2c3cccc(O)c3NC3=C(C(=O)CC(C)(C)C3)C2c2ccc(OCc3ccccc3)cc2F)c(C(F)(F)F)o1 | - | luciferase / reporter gene / replicon | - | 1b | 0.43 µM
CCOc1nc(NCc2ccc(C(=O)N(C)C)cc2)nc2ccc(-c3ccc(F)cc3)nc12 | - | replicon | - | - | <0.1 µM
COCC(C)N(C(=O)c1ccc(Cl)cc1F)c1cc(-c2ccc(-c3cc4ncccn4n3)cc2)sc1C(=O)O | - | luciferase / replicon | - | 1a | 0.01–0.05 µM
CNC(=O)c1c(-c2ccc(F)cc2)oc2cc(N(C)S(=O)(=O)CC3CC3)c(OC)cc12 | Huh7 | replicon | - | - | <1 µM
CC(C)(N)C(=O)Nc1ccc(-c2ccc3nc(NCc4ccc(F)cc4)nc(NCC(F)(F)F)c3n2)cc1 | - | replicon | - | - | <0.1 µM
CNC(=O)c1c(-c2ccc(F)cc2)oc2cc(N3CCOCC3)c(OCc3nnnn3C)cc12 | Huh7 | replicon | - | - | <10 µM
CN(CCS(C)(=O)=O)c1nc(NCc2ccc(S(N)(=O)=O)cc2)nc2ccc(-c3ccc(F)cc3)nc12 | - | replicon | - | - | <0.1 µM
CC1(C)CC(=O)C2=C(C1)Nc1c(O)cccc1NC2c1[nH]c(-c2ccccc2)nc1Cl | - | luciferase / reporter gene / replicon | - | 1b | 34.72 µM
CCOc1nc(NCc2ccc(S(N)(=O)=O)cc2)nc2ccc(-c3ccc(NC(=O)C4CCNC4)cc3)nc12 | - | replicon | - | - | <0.1 µM
CC1(C)CC(=O)C2=C(C1)Nc1c(O)cccc1N(C(=O)c1cocn1)C2c1ccc(OCc2ccccc2)cc1F | - | luciferase / reporter gene / replicon | - | 1b | 0.48 µM
O=C(O)c1sc(-c2ccc(-c3cc4ncccn4n3)cc2)cc1N(C(=O)c1ccc(Cl)cc1F)C1CCOC1 | - | luciferase / replicon | - | 1a | 0.1–0.5 µM
Fc1ccc(-c2ccc3nc(NCc4cncs4)nc(NCC(F)(F)F)c3n2)cc1 | - | replicon | - | - | <0.1 µM

The first 4 rows once more:

compound | cell line | method | changes | strain | result
CNC(=O)c1c(-c2ccc(F)cc2)oc2cc(N(Cc3cccc(CBr)n3)S(C)(=O)=O)c(OCc3cccc(CBr)n3)cc12 | Huh7 | replicon | - | - | <10 µM
CCCCCOc1ccc(N(C(=O)C(=O)OC)c2nc(-c3ccncc3)cs2)cc1C(F)(F)F | - | - | - | - | <1 µM
COc1c(-c2ccc3cc(NS(C)(=O)=O)ccc3c2)cc(-n2ccc(=O)[nH]c2=O)cc1C(C)(C)C | Huh7 | luciferase | V499A | genotype 1b | 0.0025 µM
COCC(C)N(C(=O)c1ccc(Cl)cc1Cl)c1cc(-c2ccccc2)sc1C(=O)O | - | luciferase / replicon | - | 1a | 1–5 µM